Literature values in patent publication US20140234375A1, “Compositions and Methods for Eliciting an Immune Response to Escape Mutants of Targeted Therapies” (priority 2005, published 2014).

Test system: HIV-1 variants
Details: HIV-1 variants under nevirapine therapy

Cc1ccnc2c1NC(=O)c1cccnc1N2C1CC1 [Nevirapine, nevirapine]
time of therapy after which decreased susceptibility is evident: 1 week
